Reference: article PMC8011991 (Journal of medicinal chemistry, 2020)

Test system: HIV-1 NL4–3 virus
Details: TZM-bl cells

Compound	SI (selectivity index, ratio of CC50/EC50)
COc1ccc(N(C)C(=O)[C@H](Cc2ccccc2)NC(=O)CNS(=O)(=O)c2ccc(F)cc2)cc1 [Compound 6b, (S)-2-(2-((4-fluorophenyl)sulfonamido)acetamido)-N-(4-methoxyphenyl)-N-methyl-3-phenylpropanamide]	>5.88
COc1ccc(N(C)C(=O)[C@H](Cc2ccccc2)NC(=O)CNS(=O)(=O)c2ccc(Br)cc2)cc1 [Compound 6d, (S)-2-(2-((4-bromophenyl)sulfonamido)acetamido)-N-(4-methoxyphenyl)-N-methyl-3-phenylpropanamide]	>4.35
COc1ccc(N(C)C(=O)[C@H](Cc2ccccc2)NC(=O)CNS(=O)(=O)c2cccc(N)c2)cc1 [Compound 6q, (S)-2-(2-((3-aminophenyl)sulfonamido)acetamido)-N-(4-methoxyphenyl)-N-methyl-3-phenylpropanamide]	>4.88
COc1ccc(N(C)C(=O)[C@H](Cc2ccccc2)NC(=O)CN2C(=O)N(CC(=O)N[C@@H](Cc3ccccc3)C(=O)N(C)c3ccc(OC)cc3)S(=O)(=O)c3cc(F)ccc32)cc1 [Compound 8d, (2S,2’S)-2,2’-((2,2’-(7-fluoro-1,1-dioxido-3-oxo-2H-benzo[e][1,2,4]thiadiazine-2,4(3H)-diyl)bis(acetyl))bis(azanediyl))bis(N-(4-methoxyphenyl)-N-methyl-3-phenylpropanamide)]	>6.06
COc1ccc(N(C)C(=O)[C@H](Cc2ccccc2)NC(=O)CNS(=O)(=O)c2ccccc2F)cc1 [Compound 6j, (S)-2-(2-((2-fluorophenyl)sulfonamido)acetamido)-N-(4-methoxyphenyl)-N-methyl-3-phenylpropanamide]	>3.70
COc1ccc(N(C)C(=O)[C@H](Cc2ccccc2)NC(=O)CN2CCN(S(=O)(=O)c3cccc([N+](=O)[O-])c3)CC2=O)cc1 [Compound 11j, (S)-N-(4-methoxyphenyl)-N-methyl-2-(2-(4-((3-nitrophenyl)sulfonyl)-2-oxopiperazin-1-yl)acetamido)-3-phenylpropanamide]	>48.75
COc1ccc(N(C)C(=O)[C@H](Cc2ccccc2)NC(=O)CN2C(=O)Nc3ccc(OC)cc3S2(=O)=O)cc1 [Compound 8c, (S)-2-(2-(7-methoxy-1,1-dioxido-3-oxo-3,4-dihydro-2H-benzo[e][1,2,4]thiadiazin-2-yl)acetamido)-N-(4-methoxyphenyl)-N-methyl-3-phenylpropanamide]	>7.41
COc1ccc(N(C)C(=O)[C@H](Cc2ccccc2)NC(=O)CNS(=O)(=O)c2ccccc2N)cc1 [Compound 6p, (S)-2-(2-((2-aminophenyl)sulfonamido)acetamido)-N-(4-methoxyphenyl)-N-methyl-3-phenylpropanamide]	>4.44
COc1ccc(N(C)C(=O)[C@H](Cc2ccccc2)NC(=O)CNS(=O)(=O)c2ccc(Cl)cc2)cc1 [Compound 6c, (S)-2-(2-((4-chlorophenyl)sulfonamido)acetamido)-N-(4-methoxyphenyl)-N-methyl-3-phenylpropanamide]	>3.92
COc1ccc(N(C)C(=O)[C@H](Cc2ccccc2)NC(=O)CNS(=O)(=O)c2cccc([N+](=O)[O-])c2)cc1 [Compound 6n, (S)-N-(4-methoxyphenyl)-N-methyl-2-(2-((3-nitrophenyl)sulfonamido)acetamido) −3-phenylpropanamide]	>4.26
COc1ccc(N(C)C(=O)[C@H](Cc2ccccc2)NC(=O)CN2CCN(S(=O)(=O)c3ccc(Br)cc3)CC2=O)cc1 [Compound 11f, (S)-2-(2-(4-((4-bromophenyl)sulfonyl)-2-oxopiperazin-1-yl)acetamido)-N-(4-methoxyphenyl)-N-methyl-3-phenylpropanamide]	>87.05
COc1ccc(N(C)C(=O)[C@H](Cc2ccccc2)NC(=O)CNS(=O)(=O)c2ccc(C)cc2)cc1 [Compound 6g, (S)-N-(4-methoxyphenyl)-N-methyl-2-(2-((4-methylphenyl)sulfonamido)acetamido)-3-phenylpropanamide]	>6.45
COc1ccc(N(C)C(=O)[C@H](Cc2ccccc2)NC(=O)CNS(=O)(=O)c2ccc(N)cc2)cc1 [Compound 6o, (S)-2-(2-((4-aminophenyl)sulfonamido)acetamido)-N-(4-methoxyphenyl)-N-methyl-3-phenylpropanamide]	>6.06
COc1ccc(N(C)C(=O)[C@H](Cc2ccccc2)NC(=O)CN2CCN(S(=O)(=O)c3cccc(N)c3)CC2=O)cc1 [Compound 11m, (S)-2-(2-(4-((3-aminophenyl)sulfonyl)-2-oxopiperazin-1-yl)acetamido)-N-(4-methoxyphenyl)-N-methyl-3-phenylpropanamide]	>105.19
COc1ccc(N(C)C(=O)[C@H](Cc2ccccc2)NC(=O)CN2CCN(S(=O)(=O)c3cccc(F)c3)CC2=O)cc1 [Compound 11c, (S)-2-(2-(4-((3-fluorophenyl)sulfonyl)-2-oxopiperazin-1-yl)acetamido)-N-(4-methoxyphenyl)-N-methyl-3-phenylpropanamide]	>76.96
COc1ccc(N(C)C(=O)[C@H](Cc2ccccc2)NC(=O)CNS(=O)(=O)c2cc(C)cc(C)c2)cc1 [Compound 6h, (S)-2-(2-((3,5-dimethylphenyl)sulfonamido)acetamido)-N-(4-methoxyphenyl)-N-methyl-3-phenylpropanamide]	>4.26
COc1ccc(N(C)C(=O)[C@H](Cc2ccccc2)NC(=O)CNS(=O)(=O)c2ccc(OC)cc2)cc1 [Compound 6f, (S)-N-(4-methoxyphenyl)-2-(2-((4-methoxyphenyl)sulfonamido)acetamido)-N-me thyl-3-phenylpropanamide]	>3.77
COc1ccc(N(C)C(=O)[C@H](Cc2ccccc2)NC(=O)CNS(=O)(=O)c2c(C)cc(C)cc2C)cc1 [Compound 6i, (S)-N-(4-methoxyphenyl)-N-methyl-3-phenyl-2-(2-((2,4,6-trimethylphenyl)sulfon amido)acetamido)propanamide]	>3.57
COc1ccc(N(C)C(=O)[C@H](Cc2ccccc2)NC(=O)CN2CCN(S(=O)(=O)c3ccccc3[N+](=O)[O-])CC2=O)cc1 [Compound 11k, (S)-N-(4-methoxyphenyl)-N-methyl-2-(2-(4-((2-nitrophenyl)sulfonyl)-2-oxopiperazin-1-yl)acetamido)-3-phenylpropanamide]	>32.81
COc1ccc(N(C)C(=O)[C@H](Cc2ccccc2)NC(=O)CN2CCN(S(=O)(=O)c3ccc(Cl)cc3)CC2=O)cc1 [Compound 11e, (S)-2-(2-(4-((4-chlorophenyl)sulfonyl)-2-oxopiperazin-1-yl)acetamido)-N-(4-methoxyphenyl)-N-methyl-3-phenylpropanamide]	>31.73
COc1ccc(N(C)C(=O)[C@H](Cc2ccccc2)NC(=O)CN2CCN(S(=O)(=O)c3ccccc3F)CC2=O)cc1 [Compound 11d, (S)-2-(2-(4-((2-fluorophenyl)sulfonyl)-2-oxopiperazin-1-yl)acetamido)-N-(4-methoxyphenyl)-N-methyl-3-phenylpropanamide]	>71.36
COc1ccc(N(C)C(=O)[C@H](Cc2ccccc2)NC(=O)CNS(=O)(=O)c2c(C(C)C)cc(C(C)C)cc2C(C)C)cc1 [Compound 6e, (S)-N-(4-methoxyphenyl)-N-methyl-3-phenyl-2-(2-((2,4,6-triisopropylphenyl)sulfonamido)acetamido)propanamide]	>4.17
COc1ccc(N(C)C(=O)[C@H](Cc2ccccc2)NC(=O)CN2C(=O)Nc3ccc(C)cc3S2(=O)=O)cc1 [Compound 8b, (S)-N-(4-methoxyphenyl)-N-methyl-2-(2-(7-methyl-1,1-dioxido-3-oxo-3,4-dihydro −2H-benzo[e][1,2,4]thiadiazin-2-yl)acetamido)-3-phenylpropanamide]	>6.25
COc1ccc(N(C)C(=O)[C@H](Cc2ccccc2)NC(=O)CN2CCN(S(=O)(=O)c3ccccc3)CC2=O)cc1 [Compound 11a, (S)-N-(4-methoxyphenyl)-N-methyl-2-(2-(2-oxo-4-(phenylsulfonyl)piperazin-1-yl)acetamido)-3-phenylpropanamide]	>95.22
COc1ccc(N(C)C(=O)[C@H](Cc2ccccc2)NC(=O)CN2C(=O)N(CC(=O)N[C@@H](Cc3ccccc3)C(=O)N(C)c3ccc(OC)cc3)S(=O)(=O)c3cc(Cl)ccc32)cc1 [Compound 8e, (2S,2’S)-2,2’-((2,2’-(7-chloro-1,1-dioxido-3-oxo-2H-benzo[e][1,2,4]thiadiazine-2,4(3H)-diyl)bis(acetyl))bis(azanediyl))bis(N-(4-methoxyphenyl)-N-methyl-3-phenylpropanamide)]	>4.76
COc1ccc(N(C)C(=O)[C@H](Cc2ccccc2)NC(=O)CN2CCN(S(=O)(=O)c3ccc(C)cc3)CC2=O)cc1 [Compound 11h, (S)-N-(4-methoxyphenyl)-N-methyl-2-(2-(2-oxo-4-tosylpiperazin-1-yl)acetamido)-3-phenylpropanamide]	>68.98
COc1ccc(N(C)C(=O)[C@H](Cc2ccccc2)NC(=O)CN2CCN(S(=O)(=O)c3ccccc3N)CC2=O)cc1 [Compound 11n, (S)-2-(2-(4-((2-aminophenyl)sulfonyl)-2-oxopiperazin-1-yl)acetamido)-N-(4-methoxyphenyl)-N-methyl-3-phenylpropanamide]	>64.49
COc1ccc(N(C)C(=O)[C@H](Cc2ccccc2)NC(=O)CN2C(=O)N(CC(=O)N[C@@H](Cc3ccccc3)C(=O)N(C)c3ccc(OC)cc3)S(=O)(=O)c3cc(Br)ccc32)cc1 [Compound 8f, (2S,2’S)-2,2’-((2,2’-(7-bromo-1,1-dioxido-3-oxo-2H-benzo[e][1,2,4]thiadiazine-2,4 (3H)-diyl)bis(acetyl))bis(azanediyl))bis(N-(4-methoxyphenyl)-N-methyl-3-phenylpropanamide)]	>3.85
